The results in this text go back to article PMC2647524.

Chains of the proteins cited; added tags and fusions are not shown. Lines headed by an entry give the natural chain unless they say otherwise; changes in a name come on top.
UniProt P10242: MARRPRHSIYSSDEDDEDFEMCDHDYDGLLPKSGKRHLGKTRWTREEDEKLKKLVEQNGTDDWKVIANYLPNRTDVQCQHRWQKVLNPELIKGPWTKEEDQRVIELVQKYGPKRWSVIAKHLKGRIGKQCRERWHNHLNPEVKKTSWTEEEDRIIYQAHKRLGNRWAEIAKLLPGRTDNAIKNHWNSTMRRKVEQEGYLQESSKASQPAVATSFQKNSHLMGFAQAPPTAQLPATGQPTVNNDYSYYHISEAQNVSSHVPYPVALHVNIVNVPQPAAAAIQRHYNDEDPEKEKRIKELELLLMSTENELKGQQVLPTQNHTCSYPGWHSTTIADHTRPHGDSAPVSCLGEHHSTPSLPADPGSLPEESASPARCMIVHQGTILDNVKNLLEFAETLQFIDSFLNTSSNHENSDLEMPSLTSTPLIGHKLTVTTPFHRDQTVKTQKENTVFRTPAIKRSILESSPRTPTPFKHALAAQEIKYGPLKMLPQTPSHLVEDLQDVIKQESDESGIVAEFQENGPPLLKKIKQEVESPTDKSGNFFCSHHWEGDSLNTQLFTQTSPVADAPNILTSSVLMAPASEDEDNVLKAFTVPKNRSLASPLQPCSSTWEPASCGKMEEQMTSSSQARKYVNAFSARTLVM

The data set has as its target c-Myb (UniProt P10242). In words: EMSA supershift. The note with it: anti-c-Myb antibody supershifts, PC10 antibody does not, specific by competition with 100-fold unlabeled probe; protein in an extract.

For at least one entry, the source does not settle the construct or the ends of the probe. Where cells or extracts were used, other partners may take part.

On to “TCGAGAAAGGTCAACTGTCTCACACAAAC / TCGAGTTTGTGTGAGACAGTTGACCTTTC [HTLV-4 LTR c-Myb site probe]”, for which the binding result is “binds”.
